Molecular target: Collagen 1 (UniProt P02452)
Assay: quartz crystal microbalance with dissipation

time constant: 37 s
Substance: ECF843 (recombinant human lubricin) (from UniProt Q92954 25-1404) (natural protein)

— publication PMC10691279
